Compound potency records, mixed from different reports. Data source: NIAID ChemDB in PubChem.

Common to all: whole-cell or culture tests; agent: Mycobacterium kansasii; read-out: MIC

Conditions beyond the fields shown may differ between rows. Blank or dashed fields: not listed here.

{"compound": "C[C@@H]1CN(c2c(F)c(N)c3c(=O)c(C(=O)O)cn(C4CC4)c3c2F)C[C@H](C)N1", "strain or isolate": "ATCC 12478", "method": "broth dilution / visual reading", "result": "0.2 µg/mL"}
{"compound": "N/C(=N\\N=C\\c1ccccc1O)SCc1cccc(Cl)c1", "strain or isolate": "6509/96", "method": "broth dilution", "conditions": "14 d", "result": "16 µM"}
{"compound": "O=C(Oc1ccc(Cl)cc1C(=O)Nc1cccc(Cl)c1)c1ccccc1", "strain or isolate": "235/80", "method": "broth dilution", "conditions": "7 d", "result": "2 µM"}
{"compound": "COc1ccc2oc(=O)n(-c3ccc(C(F)(F)F)cc3)c(=S)c2c1", "strain or isolate": "6509/96", "conditions": "14 d", "result": "32 µM"}
{"compound": "C[C@@H](NC(=O)OCc1ccccc1)c1cnc(-c2ccccc2)[nH]1", "strain or isolate": "My 6509/96", "conditions": "7 d", "result": "62.5 µM"}
{"compound": "Cc1ccn2c(C(=O)NCc3ccc4c(c3)CCO4)c(C)nc2c1", "strain or isolate": "Clinical isolate 379", "method": "MTT", "result": "1 µg/mL"}
{"compound": "O=C(N[C@@H](Cc1ccccc1)c1cnc(-c2ccccc2)[nH]1)OCc1ccccc1", "strain or isolate": "My 235/80", "conditions": "21 d", "result": ">500 µM"}
{"compound": "FC(F)(F)c1cc(-c2ccccc2)nc(N2N=C(/C=C/c3ccc(Cl)cc3)CC2c2ccc(Cl)cc2)n1", "method": "resazurin", "result": "20.6 µM"}
{"compound": "C[C@H](NC(=O)OCc1ccccc1)c1cnc(-c2ccc([N+](=O)[O-])cc2)[nH]1", "strain or isolate": "My 235/80", "conditions": "14 d", "result": ">125 µM"}
{"compound": "COC(=O)/C=C/C(=O)c1ccc(C(C)(C)C)cc1", "result": "32 µg/mL"}
{"compound": "O=C(Oc1cc(Cl)ccc1C(=O)Nc1ccc(Br)cc1)c1cnccn1", "strain or isolate": "235/80", "conditions": "21 d", "result": "4 µM"}
{"compound": "CCC(C)c1ccc(-n2c(=S)oc3cc(Cl)ccc3c2=S)cc1", "strain or isolate": "6509/96", "method": "broth dilution", "conditions": "14 d", "result": "2 µM"}
{"compound": "O=c1oc2ccc(Br)cc2c(=S)n1-c1cccc(Cl)c1", "strain or isolate": "My 235/80", "conditions": "14 d", "result": "2 µM"}
{"compound": "O=C(Oc1cc(Cl)ccc1C(=O)Nc1ccc(C(F)(F)F)cc1)c1cnccn1", "strain or isolate": "235/80", "conditions": "7 d", "result": "1 µM"}
{"compound": "O=C(Nc1ccc(Cl)c(Cl)c1)c1ccc(Cl)cc1OS(=O)(=O)c1ccccc1", "strain or isolate": "6509/96", "conditions": "21 d", "result": "8 µM"}
{"compound": "O=C(Oc1ccc(Cl)cc1C(=O)Nc1cccc(F)c1)c1cnccn1", "strain or isolate": "235/80", "conditions": "7 d", "result": "2 µM"}
{"compound": "O=C(Nc1cncc(Cl)n1)c1ccccc1O", "method": "resazurin", "result": ">100 µg/mL"}
{"compound": "CO[C@H]1[C@@H](O)[C@H](n2ccc(=O)[nH]c2=O)O[C@@H]1[C@@H](O[C@H]1OC(C(=O)N[C@H]2CCC[C@@H](C)NC2=O)=C[C@H](O)[C@@H]1O)C(N)=O", "strain or isolate": "ATCC 35775", "method": "broth dilution", "result": "4 µg/mL"}
{"compound": "NC(=O)c1cnccn1", "strain or isolate": "235/80", "conditions": "21 d", "result": ">1000 µM"}
{"compound": "O=C(Nc1ccc(F)cc1)c1cc(Cl)ccc1OS(=O)(=O)c1ccccc1", "strain or isolate": "6509/96", "conditions": "7 d", "result": "16 µM"}
{"compound": "O=C(Nc1cccc(F)c1)c1cc(Cl)ccc1O", "strain or isolate": "235/80", "method": "broth dilution", "conditions": "21 d", "result": "8 µM"}
{"compound": "Fc1ccc2oc(=S)n(-c3ccc(Br)cc3)c(=S)c2c1", "strain or isolate": "My 235/80", "conditions": "14 d", "result": "4 µM"}
{"compound": "O=C(Oc1cc(Cl)ccc1C(=O)Nc1cccc(Cl)c1)c1ccccc1", "strain or isolate": "6509/96", "method": "broth dilution", "conditions": "14 d", "result": "4 µM"}
{"compound": "O=C(Nc1cccc(Br)c1)c1ccc(Cl)cc1OS(=O)(=O)c1ccccc1", "strain or isolate": "235/80", "conditions": "14 d", "result": "62.5 µM"}
{"compound": "O=C(N[C@@H](Cc1ccccc1)c1cnc(-c2ccc([N+](=O)[O-])cc2)[nH]1)OCc1ccccc1", "strain or isolate": "My 6509/96", "conditions": "21 d", "result": "16 µM"}
{"compound": "O=C(Oc1ccc(Cl)cc1C(=O)Nc1ccc(F)cc1)c1cnccn1", "strain or isolate": "235/80", "conditions": "21 d", "result": "8 µM"}
{"compound": "O=C(OCc1ccccc1)N1CCC[C@H]1c1cnc(-c2ccccc2)[nH]1", "strain or isolate": "My 6509/96", "conditions": "21 d", "result": "62.5 µM"}
{"compound": "O=C(Oc1ccc(Br)cc1C(=O)Nc1ccc(C(F)(F)F)cc1)c1cnccn1", "strain or isolate": "6509/96", "conditions": "21 d", "result": "2 µM"}
{"compound": "C[C@H](NC(=O)OCc1ccccc1)c1cnc(-c2ccccc2)[nH]1", "strain or isolate": "My 6509/96", "conditions": "14 d", "result": "125 µM"}
{"compound": "COc1ccc(/C=C/C2=NN(C(=N)N)C(c3ccc(OC)cc3)C2)cc1", "method": "resazurin", "result": "3.57 µM"}
{"compound": "Cc1ccc2nc(C)c(C(=O)NCc3ccc(C(F)(F)F)cc3)n2c1", "strain or isolate": "Clinical isolate 0008", "method": "MTT", "result": "0.25 µg/mL"}
{"compound": "O=C(Nc1cccc(Br)c1)c1cc(Cl)ccc1OS(=O)(=O)c1ccccc1", "strain or isolate": "235/80", "conditions": "21 d", "result": "16 µM"}
{"compound": "O=C(Nc1ccc(Cl)c(Cl)c1)c1cc(Cl)ccc1O", "strain or isolate": "6509/96", "method": "broth dilution", "conditions": "14 d", "result": "8 µM"}
{"compound": "O=c1oc2ccc(F)cc2c(=S)n1-c1ccc(Cl)cc1", "strain or isolate": "6509/96", "conditions": "14 d", "result": "1 µM"}
{"compound": "O=C(Oc1ccc(Cl)cc1C(=O)Nc1ccc(Br)cc1)c1ccccc1", "strain or isolate": "235/80", "method": "broth dilution", "conditions": "14 d", "result": "4 µM"}
{"compound": "Cc1ccc2oc(=O)n(-c3ccc(C(F)(F)F)cc3)c(=S)c2c1", "strain or isolate": "6509/96", "conditions": "21 d", "result": "32 µM"}
{"compound": "O=C(Oc1cc(Cl)ccc1C(=O)Nc1cccc(Br)c1)c1ccccc1", "strain or isolate": "235/80", "method": "broth dilution", "conditions": "7 d", "result": "2 µM"}
{"compound": "S=C=NCCCCCCCN=C=S", "method": "visual reading", "result": "8 µg/mL"}

Repeating the final 6 entries:

compound	strain or isolate	method	conditions	result
O=C(Nc1ccc(Cl)c(Cl)c1)c1cc(Cl)ccc1O	6509/96	broth dilution	14 d	8 µM
O=c1oc2ccc(F)cc2c(=S)n1-c1ccc(Cl)cc1	6509/96		14 d	1 µM
O=C(Oc1ccc(Cl)cc1C(=O)Nc1ccc(Br)cc1)c1ccccc1	235/80	broth dilution	14 d	4 µM
Cc1ccc2oc(=O)n(-c3ccc(C(F)(F)F)cc3)c(=S)c2c1	6509/96		21 d	32 µM
O=C(Oc1cc(Cl)ccc1C(=O)Nc1cccc(Br)c1)c1ccccc1	235/80	broth dilution	7 d	2 µM
S=C=NCCCCCCCN=C=S		visual reading		8 µg/mL